Results from patent US3980522A, “Production of a new antibiotic, calvatic acid” (Zaidan Hojin Biseibutsu Kagaku Kenkyu Kai, priority 1973, dated 1976).
Values after ≈ are worked out from the molar mass of the structure shown.

Experiments:
[1] = tested on: Staphylococcus aureus FDA 209P; assay: Antimicrobial spectrum, agar dilution MIC; format: cell-based; settings: FDA209P, agar dilution method
Xanthomonas oryzae = assay: microbe, parasite or virus in culture; format: cell-based

For `N#CN=[N+]([O-])c1ccc(C(=O)O)cc1` [calvatic acid, p-carboxyphenylazoxycarbonitrile], the MIC [1] was 6.25 µg/mL (≈ 32.7 µM) and the MIC (Xanthomonas oryzae) was 3.12 µg/mL (≈ 16.3 µM).
